Assay results reported in PubChem BioAssay AID1224855 (National Center for Advancing Translational Sciences (NCATS), 2016).
Only a part is listed here, and it is no random draw. Results filed as inconclusive are left out. A call without a number means that no potency is given here. The source made the active and inactive calls. Calls come from the whole dose curve; as a rule, active = well fitted inhibition curve with a large enough effect; inconclusive = small, poorly fitted or top-dose-only effect; inactive = no such curve, though single readings can be large or run the other way.

Test: Confirmation assay for measurement of the activity of small molecule inhibitors on Zika virus induced Caspase-3 activity in human iPSC derived neural progenitor cells (hNPCs)
Text: National Center for Advancing Translational Sciences [NCATS] Johns Hopkins University School of Medicine Florida State University Assay Overview: Increase in the Caspase-3 activity indicates an activation of apoptosis cell death pathway caused by Zika virus infection in certain types of neuronal cells including human neural progenitor cells (hNPCs), astrocytes, and astrocytoma cell line (SNB-19). This cell-based caspase-3 activity assay measures the increased caspase-3 activity in the human iPSC derived neural progenitor cells (hNPCs) after a 6-hour Zika virus infection with a luminescence readout. A decrease in the luminescence signal in this assay by small molecule treatment indicates an inhibitory effect of that small molecule on the Zika virus induced caspase-3 activity that may correlate with its effect on reduction of Zika virus caused cell death.
Assay Protocol Summary: The medium for hNPCs consists of DMEM/F12, N2 supplement (ThermoFisher, Cat.# 17502048), NEAA (ThermoFisher, Cat. # 11140050), 2 ug/ml heparin, 2 uM cyclopamine, and B27 (ThermoFisher, Cat. # 17504044). […] The luminescence intensity of the assay plates was measured using a ViewLux plate reader (PerkinElmer). […] The percentage inhibitions of the increased Caspase-3 activity by small molecule inhibitors were then calculated.

SMILES | Potency
C/C1=C2N=C(/C=C3N=C(/C(C)=C4\[N-][C@@](C)([C@@H]5N=C1[C@](C)(CCC(=O)NC[C@@H](C)OP(=O)([O-])O[C@H]1[C@@H](O)[C@@H](n6cnc7cc(C)c(C)cc76)O[C@@H]1CO)[C@H]5CC(N)=O)[C@@](C)(CC(N)=O)[C@@H]4CCC(N)=O)[C@@](C)(CC(N)=O)[C@@H]\3CCC(N)=O)C(C)(C)[C@@H]/2CCC(N)=O.[C-]#N.[Co+3] | active: 6.9 µM
CCOP(=O)(CC)Oc1ccc([N+](=O)[O-])cc1 (configuration not stated) | inactive
